PubChem BioAssay AID624099 | ICCB-Longwood, 2012
The whole screen tested about 21,000 reagents; this is a part drawn at random. Of all reagents, 497 (2.4%) got an active call. 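Higher z means weaker E2 silencing; only reporter increases were scored, and knock-downs that hurt cell survival may mask genuine repressor factors.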 No sequences are given here.

Aim: 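Host factors E2 relies on to silence an HPV18 LCR reporter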 (primary screen)
Cell system: human C33A cervical carcinoma cells (HPV-negative) stably expressing BPV1 E2 and an HPV18 LCR luciferase reporter
Knock-down reagent: siRNA pool against human genes, 40 nM
Duration: 72 h
Read-out: 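Per-well luciferase luminescence, z-scored on each plate against the plate mean and SD with control wells left out, then averaged across three replicate plates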
Reading the numbers: mean z-score and z-score: higher = stronger reporter signal, weaker E2 silencing
Hit rule: 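Hit if mean z-score reaches 2 and two or more of three replicate z-scores also reach 2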

Gene	mean z-score	z-score, replicate A	z-score, replicate B	z-score, replicate C	activity call
LOC388972 (retired record)	-0.15	-0.22	-0.27	0.03	inactive
KIRREL3-AS3	0.13	0.09	0.04	0.26	inactive
NAA15	-0.01	0.25	0.05	-0.34	inactive
LOC390256 (retired record)	0.69	1.03	0.41	0.61	inactive
DPCD	1.07	1.04	1.08	1.08	inactive
CLDN2	0.93	0.91	0.82	1.07	inactive
UTP15	-1.06	-1.41	-0.96	-0.82	inactive
SYNE2	-0.25	0.05	-0.64	-0.16	inactive
LOC151443 (retired record)	0.26	0	-0.05	0.85	inactive
ARMCX3	0.47	0.54	0.18	0.69	inactive
ODAD4	-0.97	-1	-0.82	-1.09	inactive
TADA2B	-1.14	-1.04	-1.37	-1.01	inactive
TAB3	-0.35	-0.04	-0.27	-0.74	inactive
ODR4	0.79	0.92	1.01	0.44	inactive

Next part (3 carried over from the part before).
Gene	mean z-score	z-score, replicate A	z-score, replicate B	z-score, replicate C	activity call
TADA2B	-1.14	-1.04	-1.37	-1.01	inactive
TAB3	-0.35	-0.04	-0.27	-0.74	inactive
ODR4	0.79	0.92	1.01	0.44	inactive
GATA3	-0.43	0.06	-0.89	-0.47	inactive
RNF186	-1.45	-1.36	-1.51	-1.49	inactive
OSBPL10	-0.14	0.05	0.01	-0.49	inactive
CPD	3.33	2.88	3.35	3.77	active
PLCL2	1.86	2.31	1.72	1.54	inactive
FAM117A	-2.35	-2.01	-1.95	-3.1	inactive
EIF4A2	0.81	0.66	1.15	0.63	inactive
HGSNAT	0.68	0.64	0.67	0.71	inactive
PPIAP35	-1.64	-1.34	-1.81	-1.75	inactive
